A mixed list of measured activities; the numbers were collected in NIAID ChemDB.

Common to all: whole-cell or culture tests; agent: Human cytomegalovirus; cell line: MRC-5; read-out: EC50

Rows are shuffled and stem from different studies. ECn is the concentration giving n% inhibition of infection, replication or growth. a–b is a range or a potency band.

structure	strain or isolate	method	value
Nc1ccn(C[C@H]2COP(=O)(O)CO2)c(=O)n1	C9209/1-4-4 drug-resistant mutant	plaque count	1.95 µM
Nc1ccn(C[C@@H](CO)OCP(=O)(O)O)c(=O)n1	PC92 (ganciclovir- foscarnet-susceptible)	plaque count	0.42 µM
c1ccn2cc(-c3ccoc3)cc2c1	AD169	plaque count	50 µM
CCCCCCCCCCCCCCCCOCCCOP(=O)(O)CO[C@H](CO)Cn1ccc(N)nc1=O	Toledo	plaque count	0.025 µM
Nc1ccn(C[C@H]2COP(=O)(O)CO2)c(=O)n1	PC92 (ganciclovir- foscarnet-susceptible)	plaque count	0.45 µM
Fc1ccccc1-c1cc2ccccn2c1	AD169	plaque count	>10 µM
OC[C@H]1O[C@@H](n2c(Br)nc3cc(Cl)c(Cl)cc32)[C@H](O)[C@@H]1O	1038RA 5-2-3 (plaque-purified 1038RA strain)	plaque count	6 µM
CC(C)Nc1nc2cc(Cl)c(Cl)cc2n1[C@H]1O[C@@H](CO)[C@H](O)[C@@H]1O	1038RB (ASP344GLU AND ALA355VAL)	hybridisation	0.04 µM
CC(=O)c1c(-c2ccccc2)cc2ccccn12	AD169	plaque count	>100 µM
Nc1nc2c(ncn2COC(CO)CO)c(=O)[nH]1	C9003	plaque count	1 µM
CCCCCCCCCCCCCCCCCCOCCOP(=O)(O)CO[C@H](CO)Cn1ccc(N)nc1=O	C9209/1-4-4 drug-resistant mutant	plaque count	0.004 µM
Nc1ccn(C[C@@H](CO)OCP(=O)(O)O)c(=O)n1	C8704 (ganciclovir-resistant)	plaque count	0.4 µg/mL
CCOP(=O)(O)CCC(CO)OCn1cnc2c(=O)[nH]c(N)nc21	LA ganciclovir-susceptible	plaque count	25 µg/mL
c1ccc(-c2cc3ccccn3c2)cc1	AD169	plaque count	7–19 µM
O=C(O)P(=O)(O)O	PAAR	plaque count	93.99 µM
COc1ccc(OC)c(-c2cc3ccccn3c2)c1	AD169	plaque count	>100 µM
Nc1nc2c(ncn2COC(CO)CO)c(=O)[nH]1	C8704 (ganciclovir-resistant)	plaque count	7.6 µg/mL
CC(=O)c1c(-c2ccc(Cl)c(Cl)c2)cc2ccccn12	AD169	plaque count	>100 µM
Nc1ccn(C[C@@H](CO)OCP(=O)(O)O)c(=O)n1.O=C(O)P(=O)(O)O	Towne (ganciclovir- foscarnet-susceptible)	plaque count	0.9 µM